Compound potency records, mixed from different reports. Data source: NIAID ChemDB in PubChem.

Shared fields: whole-cell or culture tests; agent: Mycobacterium avium

ECn: concentration that inhibits the pathogen or its effect by n%. An empty or dashed field is not shown. Rows are shuffled and stem from different studies. MIC50, MIC90 and the like: level of inhibition, or share of isolates inhibited. Percent inhibition refers to the dose given; in toxicity tests it is the harm to the cells.

CCCNC(=O)Nc1ccc(S(=O)(=O)Nc2cc(C)on2)cc1 ; conditions: 21 d ; strain or isolate: 330/88 ; method: broth dilution / absorbance ; measure: MIC100 ; result: 1000 µM
CO[C@H]1/C=C/O[C@@]2(C)Oc3c(C)c(O)c4c(O)c(c5c(c4c3C2=O)NC2(CCN(CC(C)C)CC2)N=5)=NC(=O)/C(C)=C\C=C\[C@H](C)[C@H](O)[C@@H](C)[C@@H](O)[C@@H](C)[C@H](OC(C)=O)[C@@H]1C ; strain or isolate: 9 isolates (HIV+) ; measure: MIC50 ; result: 1 µg/mL
C[C@H]1COc2c(N3CC[C@H](N)C3)c(F)cc3c(=O)c(C(=O)O)cn1c23 ; strain or isolate: 4 strains ; measure: Mean MIC ; result: 15.6 µg/mL
O=C1C=CC(=O)c2c(O)ccc(O)c21 ; strain or isolate: MAC104 ; measure: MBC ; result: 12.5 µg/mL
C[C@H]1COc2c(N3CC(C)(CN)C3)c(F)cc3c(=O)c(C(=O)O)cn1c23 ; strain or isolate: 4 strains ; measure: Mean MIC ; result: 50 µg/mL
CCn1cc(C(=O)O)c(=O)c2cc(F)c(N3CCN(C)CC3)cc21 ; conditions: pH 6.8 ; measure: inhibition ; tested at: 10 µg/mL ; result: 88%
CCN(CC)c1nc2c(s1)c1c(O)c3c(O)c(C)c4c(c32)C(=O)[C@@](C)(O/C=C/[C@H](OC)[C@@H](C)[C@@H](OC(C)=O)[C@H](C)[C@H](O)[C@H](C)[C@@H](O)[C@@H](C)/C=C/C=C(/C)C(=O)N1)O4 ; strain or isolate: 211-5 ; measure: MBC ; result: 8 µg/mL
CCCCCNC(=O)Nc1ccc(S(=O)(=O)Nc2cc(C)on2)cc1 ; conditions: 14 d ; strain or isolate: 330/88 ; method: broth dilution / absorbance ; measure: MIC100 ; result: 500 µM
CC[C@H]1OC(=O)[C@H](C)[C@@H](O[C@H]2C[C@@](C)(OC)[C@@H](O)[C@H](C)O2)[C@H](C)[C@@H](O[C@@H]2O[C@H](C)C[C@H](N(C)C)[C@H]2O)[C@](C)(OC)C[C@@H](C)C(=O)[C@H](C)[C@@H](O)[C@]1(C)O ; method: resazurin ; measure: EC50 ; result: >200 µg/mL
CO[C@H]1/C=C/O[C@@]2(C)Oc3c(C)c(O)c4c(O)c(c(/C=N/N5CCN(C)CC5)c(O)c4c3C2=O)NC(=O)/C(C)=C\C=C\[C@H](C)[C@H](O)[C@@H](C)[C@@H](O)[C@@H](C)[C@H](OC(C)=O)[C@@H]1C ; strain or isolate: clinical sample ; measure: MIC50 ; result: 2 µg/mL
CCn1cc(C(=O)O)c(=O)c2cc(F)c(N3CCNCC3)cc21 ; strain or isolate: 13 strains ; measure: MIC50 ; result: >32 µg/mL
CCCCCCCNC(=O)Nc1ccc(S(=O)(=O)Nc2cc(C)on2)cc1 ; conditions: 21 d ; strain or isolate: 330/88 ; method: broth dilution / absorbance ; measure: MIC100 ; result: 62.5 µM
CCOc1ccc(NC(C)=O)cc1 ; strain or isolate: MAC104 ; measure: MBC ; result: 3200 µg/mL
CC[C@@H](CO)NCCN[C@@H](CC)CO ; strain or isolate: Clinical isolate ; measure: MIC50 ; result: 1 µg/mL
CCCCNC(=O)Nc1ccc(S(=O)(=O)Nc2cc(C)on2)cc1 ; conditions: 14 d ; strain or isolate: 330/88 ; method: broth dilution / absorbance ; measure: MIC100 ; result: 1000 µM
Cc1cc(-c2cc3c(cc2F)c(=O)c(C(=O)O)cn3C2CC2)cc(C)n1 ; strain or isolate: 3350 ; measure: MBC ; result: 4 µg/mL
CC[C@H]1OC(=O)[C@H](C)[C@@H](O[C@H]2C[C@@](C)(OC)[C@@H](O)[C@H](C)O2)[C@H](C)[C@@H](O[C@@H]2O[C@H](C)C[C@H](N(C)C)[C@H]2O)[C@](C)(OC)C[C@@H](C)C(=O)[C@H](C)[C@@H](O)[C@]1(C)O ; conditions: pH 6.8 ; strain or isolate: 3350 ; method: broth dilution / radiometric ; measure: MBC ; result: 32 µg/mL
CO[C@H]1/C=C/O[C@@]2(C)Oc3c(C)c(O)c4c(O)c(c5c(c4c3C2=O)NC2(CCN(CC(C)C)CC2)N=5)=NC(=O)/C(C)=C\C=C\[C@H](C)[C@H](O)[C@@H](C)[C@@H](O)[C@@H](C)[C@H](OC(C)=O)[C@@H]1C ; strain or isolate: Isolate 90-1110 ; measure: MIC ; result: >1 µg/mL
CC[C@H]1OC(=O)[C@H](C)[C@@H](O[C@H]2C[C@@](C)(OC)[C@@H](O)[C@H](C)O2)[C@H](C)[C@@H](O[C@@H]2O[C@H](C)C[C@H](N(C)C)[C@H]2O)[C@](C)(O)C[C@@H](C)[C@@H]2N[C@@H](COCCOC)O[C@H]([C@H]2C)[C@]1(C)O ; strain or isolate: 30 strains ; measure: Median MIC ; result: 16 µg/mL
CC[C@H]1OC(=O)[C@H](C)[C@@H](O[C@H]2C[C@@](C)(OC)[C@@H](O)[C@H](C)O2)[C@H](C)[C@@H](O[C@@H]2O[C@H](C)C[C@H](N(C)C)[C@H]2O)[C@](C)(OC)C[C@@H](C)C(=O)[C@H](C)[C@@H](O)[C@]1(C)O ; strain or isolate: Clinical isolate ; measure: MIC50 ; result: <4 µg/mL
O=C1C=CC(=O)c2c(O)cccc21 ; strain or isolate: MAC104 ; measure: MBC ; result: 12.5 µg/mL
C[C@H]1COc2c(N3CC(C)(N)C3)c(F)cc3c(=O)c(C(=O)O)cn1c23 ; strain or isolate: 4 strains ; measure: Mean MIC ; result: 20.3 µg/mL
CN(C)c1ccc(O)c2c1C[C@H]1C[C@H]3[C@H](N(C)C)C(=O)C(C(N)=O)=C(O)[C@@]3(O)C(=O)C1=C2O ; strain or isolate: ATCC 25291 ; measure: Mean MIC ; result: >28 µg/mL
CO[C@H]1/C=C/O[C@@]2(C)Oc3c(C)c(O)c4c(=O)c(c5oc6cc(N7CCN(CC(C)C)CC7)cc(=O)c6nc5c4c3=C2O)NC(=O)/C(C)=C\C=C\[C@H](C)[C@H](O)[C@@H](C)[C@@H](O)[C@@H](C)[C@H](OC(C)=O)[C@@H]1C ; strain or isolate: 3354 ; measure: MBC ; result: 0.25 µg/mL
Nc1ccc(C(=O)O)c(O)c1 ; strain or isolate: ATCC 25291 ; measure: Mean MIC ; result: 28 µg/mL
Cc1cc(NS(=O)(=O)c2ccc(NC(=O)N(C(C)C)C(C)C)cc2)no1 ; conditions: 21 d ; strain or isolate: 330/88 ; method: broth dilution / absorbance ; measure: MIC100 ; result: >1000 µM
CC(C)N=c1cc2n(-c3ccc(Cl)cc3)c3ccccc3nc-2cc1Nc1ccc(Cl)cc1 ; strain or isolate: ATCC 25291 ; measure: Mean MIC ; result: 0.61 µg/mL
C[C@H]1COc2c(N3C[C@@H](N)C4(CC4)C3)c(F)cc3c(=O)c(C(=O)O)cn1c23 ; strain or isolate: 4 strains ; measure: Mean MIC ; result: 3.1 µg/mL
CC[C@H]1OC(=O)[C@H](C)[C@@H](O[C@H]2C[C@@](C)(OC)[C@@H](O)[C@H](C)O2)[C@H](C)[C@@H](O[C@@H]2O[C@H](C)C[C@H](N(C)C)[C@H]2O)[C@](C)(OC)C[C@@H](C)C(=O)[C@H](C)[C@@H](O)[C@]1(C)O ; strain or isolate: 9 isolates (HIV+) ; measure: MIC50 ; result: 4 µg/mL
CN[C@@H]1[C@@H](O)[C@@H](O[C@@H]2[C@@H](O)[C@H](O[C@H]3O[C@H](CN)CC[C@H]3N)[C@@H](N)C[C@H]2N)OC[C@]1(C)O ; strain or isolate: ATCC 25291 ; measure: Median MIC ; result: 8 µg/mL
CC1=CC(=O)c2c(ccc(C3=C(C)C(=O)c4cccc(O)c4C3=O)c2O)C1=O ; measure: MFC ; result: 90 µg/mL
Cc1cc(NS(=O)(=O)c2ccc(NC(=O)N3CCC3)cc2)no1 ; conditions: 14 d ; strain or isolate: 330/88 ; method: broth dilution / absorbance ; measure: MIC100 ; result: 125 µM

For reference, 5 entries again:

smiles,conditions,strain or isolate,method,measure,tested at,result
CCN(CC)c1nc2c(s1)c1c(O)c3c(O)c(C)c4c(c32)C(=O)[C@@](C)(O/C=C/[C@H](OC)[C@@H](C)[C@@H](OC(C)=O)[C@H](C)[C@H](O)[C@H](C)[C@@H](O)[C@@H](C)/C=C/C=C(/C)C(=O)N1)O4,-,211-5,-,MBC,-,8 µg/mL
CCCCNC(=O)Nc1ccc(S(=O)(=O)Nc2cc(C)on2)cc1,14 d,330/88,broth dilution / absorbance,MIC100,-,1000 µM
CCn1cc(C(=O)O)c(=O)c2cc(F)c(N3CCN(C)CC3)cc21,pH 6.8,-,-,inhibition,10 µg/mL,88%
Nc1ccc(C(=O)O)c(O)c1,-,ATCC 25291,-,Mean MIC,-,28 µg/mL
CC[C@H]1OC(=O)[C@H](C)[C@@H](O[C@H]2C[C@@](C)(OC)[C@@H](O)[C@H](C)O2)[C@H](C)[C@@H](O[C@@H]2O[C@H](C)C[C@H](N(C)C)[C@H]2O)[C@](C)(OC)C[C@@H](C)C(=O)[C@H](C)[C@@H](O)[C@]1(C)O,-,9 isolates (HIV+),-,MIC50,-,4 µg/mL